Pooled drug test results. Numbers come from NIAID ChemDB, via PubChem.

Shared fields: cytotoxicity tests; measure: CC50

An empty or dashed field is not shown. Neighbouring rows are from separate reports. CCn is the concentration with n% toxicity to the cells. a–b is a range or a potency band.

structure | cell line | method | value
COc1ccc(Cl)cc1C1CC(=O)c2ccccc2O1 | CHO | MTS / absorbance | 25.5 µM
Nc1nc2c(ncn2C2CO[C@H](CO)[C@H]2O)c(=O)[nH]1 | NC-37 | - | ≥100 µg/mL
Nc1nc2c(ncn2COC(CO)CO)c(=O)[nH]1 | BFU-E | - | 39 µM
COc1ccc(Br)cc1-c1oc2ccccc2c(=O)c1O | CHO | MTS / absorbance | 25.5 µM
CCCc1cc(=O)oc2cc(OCC(C)(C)C(=O)O)c3c(c12)OC(C)(C)C=C3 | CV-1 | - | 10 µg/mL
Nc1nc(N)c2cc3c(ccc4ccccc43)nc2n1 | ACHN | MTT | 6.3 µM
Cc1cn([C@@H]2O[C@H](COC(c3ccccc3)(c3ccccc3)c3ccccc3)[C@@H](N=[N+]=[N-])[C@H]2F)c(=O)[nH]c1=O | HL-60 | - | >1000 µM
Cc1cc(NS(=O)(=O)c2ccc(NC(=S)Nc3ccc4c(c3)C(=O)OC4)cc2)no1 | CEM174 | MTT | >100 µM
CCCc1cc(=O)oc2cc(OC(=O)CC)cc(O)c12 | CV-1 | - | 90 µg/mL
Cc1cc(NS(=O)(=O)c2ccc(NC(=S)Nc3ccc(C#N)cc3)cc2)no1 | CEM174 | MTT | >100 µM
Nc1nc(N)c2cc3c(nc2n1)CCc1ccccc1-3 | CCRF-CEM | MTT | 1.7 µM
CC(C)[C@H](NC(=O)OCc1ccccc1)C(=O)N[C@@H](Cc1ccccc1)[C@@H](O)[C@@H](NCc1ccccc1)C(=O)N[C@H](C(=O)NCc1nc2ccccc2[nH]1)C(C)C | U-937 | - | 6.1 µM
Nc1cn(/C=C2/C[C@H]2CO)c(=O)[nH]c1=O | H-1 | - | >50 µM
Cc1cn2c(nc1=O)O[C@H]1C[C@@H](COC(c3ccccc3)(c3ccccc3)c3ccccc3)O[C@H]12 | HL-60 | - | >1000 µM
Cc1cc(NS(=O)(=O)c2ccc(NC(=S)NCCc3ccccc3)cc2)no1 | CEM174 | MTT | >100 µM
COc1ccc(Br)cc1C1CC(=O)c2ccccc2O1 | CHO | MTS / absorbance | 25.5 µM
Cc1cc2c(O[C@H]3O[C@H](CO)[C@@H](O)[C@H]3O)ccc(O)c2c(=O)o1 | HL-60 | MTT | >40 µg/mL
Nc1nc2c(ncn2COC2CCP(=O)([O-])OC2)c(=O)[nH]1 | GPE | - | 112 µg/mL
COc1ccc(I)cc1-c1oc2ccccc2c(=O)c1O | CHO | MTS / absorbance | 25.5 µM
CCCc1cc(=O)oc2cc(OCC(C)(C)C(=O)OC)c3c(c12)OC(C)(C)C=C3 | CV-1 | - | 20 µg/mL
Nc1ccn(C2CO[C@H](CO)[C@H]2O)c(=O)n1 | NC-37 | - | 38.82 µg/mL
CCOc1ccc(Cl)cc1-c1oc2ccccc2c(=O)c1O | CHO | MTS / absorbance | 25.5 µM
Cc1ccc(C(=O)Nc2ncc(Cl)s2)c(O)c1 | 2.2.15 | - | >100 µM
O=C(CCC(=O)N1CCCN(C(=O)CCC(=O)NCCOCCOCCN2C(=O)C=CC2=O)CCCN(C(=O)CCC(=O)NCCOCCOCCN2C(=O)C=CC2=O)CCC1)NCCOCCOCCN1C(=O)C=CC1=O | PM1 (PHA stimulated) | - | 1.3 µM
CCC/C(=C/C(=O)OC)c1c(O)c2c(c3c1OC(C)(C)[C@H](O)[C@H]3O)O[C@H](C)[C@@H](C)[C@@H]2O | CV-1 | neutral red | 20 µg/mL
CC(C)N(Cc1cccc(OCCCCCC(=O)OC(=O)O)c1)C(=O)c1ccc(-c2cccc(Br)c2)cc1 | BJ | - | >20 µM
CCCCOC(=O)c1ccc(NC(=S)Nc2ccc(S(=O)(=O)Nc3cc(C)on3)cc2)cc1 | CEM174 | MTT | >100 µM
CN(C(=O)[C@H](Cc1ccccc1)NC(=O)CNC(=O)c1ccccc1)c1cccc(C(F)(F)F)c1 | TZM-gfp | XTT | >50 µM
CCCC(=O)OCSc1ccc(F)cc1C(=O)NCCC(N)=O | CEM-SS | XTT / absorbance | >5 µM
Cc1cc(NS(=O)(=O)c2ccc(NC(=S)Nc3ccccc3Cl)cc2)no1 | CEM174 | MTT | >100 µM
O=C(CCN1C(=O)C=CC1=O)N1CCCN(C(=O)CCN2C(=O)C=CC2=O)CCCN(C(=O)CCN2C(=O)C=CC2=O)CCC1 | PM1 (PHA stimulated) | - | 3 µM
CC(C)[C@H](NC(=O)OCc1ccccc1)C(=O)N[C@@H](Cc1ccccc1)[C@@H](O)[C@@H](NCc1ccccc1)C(=O)N[C@H](C(=O)NCc1ccccc1)C(C)C | U-937 | - | 29.8 µM
Nc1ccn(C2CO[C@H](CO)[C@H]2CO)c(=O)n1 | NC-37 | - | >100 µg/mL
COC(=O)C(C)NP(=O)(OC[C@@H]1C/C1=C\n1cc(C)c(=O)[nH]c1=O)Oc1ccccc1 | H-1 | - | >100 µM
Cc1cn([C@@H]2O[C@H](COC(c3ccccc3)(c3ccccc3)c3ccccc3)C[C@@H]2O)c(=O)[nH]c1=O | HL-60 | - | >1000 µM
C#CCCC(=O)CCCc1ccc(OC)c(OC)c1 | HepG2 | - | >20 µM
CN(C(=O)[C@H](Cc1ccccc1)NC(=O)CC1NC(=O)NC1=O)c1cccc(Cl)c1 | TZM-gfp | XTT | >50 µM
CCOC(=O)[C@@]1(C)CC[C@]2(C)CC[C@]3(C)C(=CC(=O)[C@@H]4[C@@]5(C)CC/C(=N\OCc6ccccc6)C(C)(C)[C@@H]5CC[C@]43C)[C@@H]2C1 | K562 | MTT | 12.25 µM
Cc1cn([C@@H]2O[C@H](CO)[C@@H](N=[N+]=[N-])[C@H]2F)c(=O)[nH]c1=O | HL-60 | - | >1000 µM
[N-]=[N+]=N[C@]1(CO)O[C@@H](n2ccc(N)nc2=O)[C@@H](F)[C@@H]1O | Huh-7 (cell line 2209-23) | - | >100 µM
COc1cc(OC)c(-c2oc3ccccc3c(=O)c2O)cc1Br | CHO | MTS / absorbance | 25.5 µM
Cc1cn([C@@H]2O[C@H](CO)[C@@H](F)[C@@H]2F)c(=O)nc1N | HL-60 | - | 234 µM
COC(=O)C(C)NP(=O)(OC[C@@H]1C/C1=C/n1cc(N)c(=O)[nH]c1=O)Oc1ccccc1 | H-1 | - | 74 µM
CCNc1cn([C@H]2C[C@H](O)[C@@H](CO)O2)c(=O)[nH]c1=O | GMK | - | >400 µg/mL
COc1cccc(NC(=S)Nc2ccc(S(=O)(=O)Nc3cc(C)on3)cc2)c1 | CEM174 | MTT | >100 µM
CCOC(=O)CCCCCOc1cccc(C=O)c1 | HepG2 | - | >20 µM
CCOC(=O)c1ccc(NC(=S)Nc2ccc(S(=O)(=O)Nc3cc(C)on3)cc2)cc1 | CEM174 | MTT | >100 µM
CC(C)(C)C(=O)SCCOP(=O)(CO[C@@]1(C2CC2)C[C@@H](n2cnc3c(N)ncnc32)[C@H](O)[C@@H]1O)OCCSC(=O)C(C)(C)C | T4 | XTT / absorbance | 65 µM
OC[C@H]1O[C@@H](n2c(Br)nc3cc(Cl)c(Cl)cc32)[C@H](O)[C@@H]1O | IM9 | - | 35–72 µM
CCOC(=O)[C@@]1(C)CC[C@]2(C)CC[C@]3(C)C(=CC(=O)[C@@H]4[C@@]5(C)CC/C(=N\OCc6ccc(Br)cc6)C(C)(C)[C@@H]5CC[C@]43C)[C@@H]2C1 | CT26 | MTT | 55.87 µM
Cc1cc(NS(=O)(=O)c2ccc(NC(=S)NCc3ccccc3)cc2)no1 | CEM174 | MTT | >100 µM
Nc1nc(N)c2ncn(C3CO[C@H](CO)[C@H]3O)c2n1 | NC-37 | - | 87.63 µg/mL
Cc1cc(NS(=O)(=O)c2ccc(NC(=S)Nc3ccc(Cl)c(Cl)c3)cc2)no1 | CEM174 | MTT | >100 µM
CC(C)[C@H](NC(=O)OCc1ccccc1)C(=O)N[C@@H](Cc1ccccc1)[C@@H](O)[C@@H](NCc1ccc(Br)cc1)C(=O)N[C@H](C(=O)NCc1nc2ccccc2[nH]1)C(C)C | U-937 | - | 5.8 µM
Cc1cn([C@@H]2O[C@H](CO)[C@@H](F)[C@H]2F)c(=O)[nH]c1=O | HL-60 | - | >1000 µM
Cc1cn(CC(=O)N[C@@H](Cc2ccccc2)C(=O)N(C)c2ccc(F)cc2)c(=O)[nH]c1=O | TZM-gfp | XTT | >50 µM
CCOC(=O)[C@@]1(C)CC[C@]2(C)CC[C@]3(C)C(=CC(=O)[C@@H]4[C@@]5(C)CC/C(=N\OCc6ccc(C)cc6)C(C)(C)[C@@H]5CC[C@]43C)[C@@H]2C1 | K562 | MTT | 53.89 µM
CC(C)N(Cc1cccc(OCCCCCC(=O)OC(=O)O)c1)C(=O)c1ccc(-c2cccc([N+](=O)[O-])c2)cc1 | BJ | - | >20 µM
Cc1cn(CC(=O)N[C@@H](Cc2ccccc2)C(=O)N(C)c2ccccc2)c(=O)[nH]c1=O | TZM-gfp | XTT | >50 µM